Measured values from several laboratories, pooled; numbers as filed in NIAID ChemDB.

All rows: whole-cell or culture tests

Inhibition is in % at the dose shown (toxicity tests: loss of growth or viability). ECn: concentration that inhibits the pathogen or its effect by n%. Rows are shuffled and stem from different studies. An empty or dashed field is not shown.

compound	cell line	species	strain	read by	dose	measure	result
O=C(O)P(=O)(O)O	VERO	Herpes simplex virus 2	TK-	cytopathic effect	79.4 µM	inhibition	>25%
O=c1[nH]c(=O)n([C@H]2C[C@H](O)[C@@H](CO)O2)cc1/C=C/Br	HEL	Herpes simplex virus 1	KOS BVDU-resistant	cytopathic effect	-	EC50	44 µg/mL
O=C1Cn2cc(C(=O)NCc3ccc(Cl)cc3)c(=O)c3cc(CN4CCOCC4)cc(c32)N1	-	Herpes simplex virus	-	-	-	EC50	<0.51 µM
CCOC(=O)P(=O)(O)OC[C@H]1O[C@@H](n2cc(CCCl)c(=O)[nH]c2=O)C[C@@H]1O	VERO	Herpes simplex virus 2	TK-	cytopathic effect	234 µM	inhibition	>25%
O=C(NCc1ccc(Cl)cc1)c1n[nH]c2ccccc2c1=O	-	Herpes simplex virus	-	-	-	EC50	1.7 µM
Nc1nc2c(ncn2COC(CO)CO)c(=O)[nH]1	HEL	Herpes simplex virus 1	KOS PMEA-resistant	cytopathic effect	-	EC50	0.004 µg/mL
CC(N)C(=O)NC1C(C)OC(=O)C2=C(O)CC(O)C(O)C21	HeLa	Herpes simplex virus 1	KOS	cytopathic effect	-	EC50	67 µM
O=C(O)P(=O)(O)O	SIRC	Herpes simplex virus 2	B4327UR	plaque count	100 µM	inhibition	96%
CCC#Cc1ccc2c(c1)c(=O)c(C(=O)NCc1ccc(Cl)cc1)nn2C	-	Herpes simplex virus	-	-	20 µM	inhibition	90%
CCc1cn([C@H]2C[C@H](O)[C@@H](CO)O2)c(=O)nc1N	-	Herpes simplex virus	-	cytopathic effect	-	EC50	40 µg/mL
Cc1cn([C@@H]2O[C@H](CO)[C@@H](O)[C@@H]2O)c(=O)[nH]c1=O	HEL	Herpes simplex virus 1	KOS	cytopathic effect	-	EC50	0.27 µg/mL
CCCCC/C=C\C/C=C\C/C=C\C/C=C\CCCC(=O)O	HeLa	Herpes simplex virus 1	KOS	cytopathic effect	-	EC50	>200 µg/mL
CCOC(=O)P(=O)(OC)OC[C@H]1O[C@@H](n2cc(I)c(=O)[nH]c2=O)C[C@@H]1O	VERO	Herpes simplex virus 1	TK-	cytopathic effect	19.8 µM	inhibition	>25%
COC(=O)OC1CCC2(C)C(=CCC3C2CCC2(C)C(C(C)CCCC(C)C)CCC32)C1	HeLa	Herpes simplex virus 1	KOS	cytopathic effect	-	EC50	>200 µg/mL
Nc1ncnc2c1ncn2[C@@H]1O[C@H](CO)[C@@H](O)[C@@H]1O	HEL	Herpes simplex virus 1	KOS	cytopathic effect	-	EC50	12.1 µg/mL
CC1CC(OC(=O)C(O)c2ccccc2)CC(C)(C)C1	HeLa	Herpes simplex virus 1	KOS	cytopathic effect	-	EC50	>400 µg/mL
O=c1[nH]c(=O)n([C@H]2C[C@H](O)[C@@H](CO)O2)cc1CCCl	VERO	Herpes simplex virus 1	BRAND	cytopathic effect	0.03 µM	inhibition	>25%
C=C(NC(=O)C(=C)NC(=O)c1csc(C2=NC3CC4(C2)NC(=O)C(C)NC(=O)C(=C)NC(=O)C(=C)NC(=O)C(C(C)C)NC2C=Cc5c(C(C)O)cc(nc5C2O)C(=O)OC(C)C(NC(=O)c2csc(n2)C(C(C)(O)C(C)O)NC(=O)C2CSC(=N2)/C(=C\C)NC(=O)C(C(C)O)NC(=O)c2csc4n2)c2nc3cs2)n1)C(N)=O	HeLa	Herpes simplex virus 1	KOS	cytopathic effect	-	EC50	>200 µg/mL
Nc1nc2c(ncn2COCCO)c(=O)[nH]1	VERO	Herpes simplex virus 2	K979	cytopathic effect	1.3 µM	inhibition	>25%
O=[N+]([O-])c1c(Cl)cccc1-c1c[nH]cc1Cl	HeLa	Herpes simplex virus 1	KOS	cytopathic effect	-	EC50	>200 µg/mL
O=C(O)CP(=O)(O)OC[C@H]1O[C@@H](n2cc(CCCl)c(=O)[nH]c2=O)C[C@@H]1O	VERO	Herpes simplex virus 1	TK-	cytopathic effect	23.2 µM	inhibition	>25%
Nc1ncc2ncn(C3OC(C(NC(=O)C4CCCC4N)C(=O)O)CC(O)(C(O)CO)C3O)c2n1	HeLa	Herpes simplex virus 1	KOS	cytopathic effect	-	EC50	>100 µg/mL
Nc1ncnc2c1ncn2C[C@@H](CO)OCP(=O)(O)O	HEL	Herpes simplex virus 1	KOS ACV-resistant	cytopathic effect	-	EC50	0.11 µg/mL